From US11518759B1, “Protacs based on VHL ligand targeting coronavirus 3CL protease and preparation method and application thereof” (SHAANXI PANLONG PHARMACEUTICAL CO., LTD., priority 2022, dated 2022)

How the values were obtained:
[1] = target: T1, SARS-CoV-2 3CL^pro (Severe acute respiratory syndrome coronavirus 2 (2019-nCoV) (SARS-CoV-2), UniProt P0DTD1); type: biochemical; conditions: FRET, SARS-CoV-2 3CLpro 0.5 μM, substrate 20 μM; class symbols
[2] = target: T1, SARS-CoV-2 3CL^pro; type: cell-based; conditions: HEK293E cells transfected with 3CLpro plasmid, 24 h, Western Blot; class symbols

What does the source list for `Cc1ncsc1-c1ccc(CNC(=O)[C@@H]2C[C@@H](O)CN2C(=O)[C@@H](NC(=O)CCn2cc(Cn3c(=O)[nH]/c(=N\c4cc5cn(C)nc5cc4Cl)n(Cc4cc(F)c(F)cc4F)c3=O)nn2)C(C)(C)C)cc1` [Compound 1]?
IC50 [1]: 0.1 to 1 µM; DC50 [2]: 0.1 to 1 µM

`Cc1ncsc1-c1ccc(CNC(=O)[C@@H]2C[C@@H](O)CN2C(=O)[C@@H](NC(=O)COCCn2cc(Cn3c(=O)[nH]/c(=N\c4cc5cn(C)nc5cc4Cl)n(Cc4cc(F)c(F)cc4F)c3=O)nn2)C(C)(C)C)cc1` [Compound 7] was tested. Which IC50 [1] did it give?
The IC50 was 0.1 to 1 µM.

What about the DC50 [2] of the same compound?
Its DC50 is 0.1 to 1 µM.
